Patent publication US7723021B2, “Methods for treating lentivirus infections” (The J. David Gladstone Institutes, priority 2003, dated 2010)

System: HIV-1 Vif-mediated degradation of HA-APOBEC3G
Experiment: Co-transfection of HEK 293 cells with HA-APOBEC3G, HA-(1-104)APOBEC3G and Vif vectors, anti-HA immunoblot
Assay type: cell-based
Details: 2 μg or 4 μg of HA-(1-104)APOBEC3G expression vector
Description: HEK 293 cells were co-transfected with an HA-APOBEC3G expression vector or with increasing amounts (2 μg or 4 μg) of an HA-(1-104)APOBEC3G expression vector; and either an HIV-1 Vif or a control expression vector. The HA-APOBEC3G expression vector encodes wild-type (e.g., full-length) APOBEC3G fused in-frame to the hemagglutinin-epitope tag at the N-terminus. The HA-(1-104)APOBEC3G expression vector encodes amino acids 1-104 of APOBEC3G fused in-frame to the hemagglutinin-epitope tag. Cell lysates were clarified by centrifugation, and equal amounts of protein separated by SDS-PAGE. The separated proteins were transferred to nitrocellulose membranes, and both HA-APOBEC3G and HA-(1-104)APOBEC3G on the membranes were detected by anti-HA antibody. In cells transfected with the HA-APOBEC3G expression vector (and not co-transfected with the Vif expression vector), HA-APOBEC3G was produced that migrated at about 50 kD. In cells co-transfected with the Vif expression vector and the HA-APOBEC3G expression vector (and not co-transfected with the HA-(1-104)APOBEC3G expression vector), most of the HA-APOBEC3G was degraded.

B1: HA-(1-104)APOBEC3G: amino acids 1-104 of APOBEC3G fused in-frame to the hemagglutinin-epitope tag, expressed from a vector (protein)
chain: MKPHFRNTVERMYRDTFSYNFYNRPILSRRNTVWLCYEVKTKGPSRPPLDAKIFRGQVYSELKYHPEMRFFHWFSKWRKLHRDQEYEVTWYISWSPCTKCTRDM
modifications: left off: small tags and cut ends
In the case of B1, the “steady-state production of the ~50 kD HA-APOBEC3G fusion protein in the presence of Vif” value is reported as “significantly restored”.
